# Data reported in patent publication US20250073344A1.
# Biological target: interleukin 13 receptor α 2 (IL13Rα2) (human) (UniProt Q14627)
# Test: cell-based or functional assay
substance,measurement,value
cmIL13 (IL13.E13K-PE4E),"IC50, CellTiter-Glo cell viability, 72 h, GBM6 cells (IL-13Rα2-medium)",0.12 ng/mL
same,"IC50, CellTiter-Glo cell viability, 72 h, GBM10 cells (IL-13Rα2-high)",0.58 ng/mL
same,"IC50, CellTiter-Glo cell viability, 72 h, GBM14 cells (IL-13Rα2-high)",0.06 ng/mL
same,"IC50, CellTiter-Glo cell viability, 72 h, GBM39 cells (IL-13Rα2-low)",53.8 ng/mL
same,"IC50, CellTiter-Glo cell viability, 72 h, GBM43 cells (IL-13Rα2-medium)",9.08 ng/mL
same,"IC50, CellTiter-Glo cell viability, 72 h, GBM108 cells (IL-13Rα2-low)",15.7 ng/mL
same,"IC50, CellTiter-Glo cell viability, 72 h, PED17 cells (IL-13Rα2-high)",0.02 ng/mL
same,"IC50, CellTiter-Glo cell viability, 72 h, SF8628-B23 cells (IL-13Rα2-medium)",0.81 ng/mL
same,"IC50, CellTiter-Glo cell viability, 72 h, SF8628 cells (IL-13Rα2-medium)",0.1 ng/mL
same,"IC50, CellTiter-Glo cell viability, 72 h, SU-DIPG XIII-P cells (IL-13Rα2-low)",10.6 ng/mL
same,"IC50, CellTiter-Glo cell viability, 72 h, SU-DIPG XVII cells (IL-13Rα2-medium)",0.75 ng/mL
